The source of these data is US8822420B2, “Peptides and aptamers thereof as specific modulators of mutant p53 function” (Universita Degli Studi di Trieste, priority 2008, dated 2014).

For one test, the target named is T1, endogenous p53 R273H (Homo sapiens, UniProt P04637, R273H).
T1 construct: cellular extracts from Sk-Br-3 cells or HT-29 cells, expressing endogenous p53 R175H and R273H respectively; endogenous in cells; host or cells: HT-29 cell lysate
The experiment in a line: In vitro binding of biotinylated 16mers, HT-29 cellular extracts. To be noted: HT-29 lysate, unconstrained biotin-16mer 10 mM, 2 hours at 4° C., streptavidin pull-down.

In the next test the target is T2, endogenous p53 R175H (Homo sapiens, UniProt P04637, R175H).
T2 construct: cellular extracts from Sk-Br-3 cells or HT-29 cells, expressing endogenous p53 R175H and R273H respectively; endogenous in cells; host or cells: Sk-Br-3 cell lysate
The test can be described thus: In vitro binding of biotinylated 16mers, Sk-Br-3 cellular extracts. To be noted: Sk-Br-3 lysate, unconstrained biotin-16mer 10 mM, 2 hours at 4° C., streptavidin pull-down.

Consider DVADWESCGEYWCYRV [sA79], for which the “in vitro binding of biotinylated 16mer to p53 R273H” value with endogenous p53 R273H is recorded as “strongest interactor”. The “in vitro binding of biotinylated 16mer to p53 R175H” value in the test with endogenous p53 R175H was “strongest interactor”.
